PubChem BioAssay AID624099, ICCB-Longwood | 2012

Assay: 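Host factors E2 relies on to silence an HPV18 LCR reporter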 (primary screen)
System: human C33A cervical carcinoma cells (HPV-negative) stably expressing BPV1 E2 and an HPV18 LCR luciferase reporter
Knock-down reagent: siRNA pool against human genes, 40 nM
Duration: 72 h
Measurement: 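Per-well luciferase luminescence, z-scored on each plate against the plate mean and SD with control wells left out, then averaged across three replicate plates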
Scale: mean z-score and z-score: higher = stronger reporter signal, weaker E2 silencing
Rule for the call: 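Hit if mean z-score reaches 2 and two or more of three replicate z-scores also reach 2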
Here is a random part of about 21,000 reagents tested. 497 of all reagents (2.4%) count as active. 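Higher z means weaker E2 silencing; only reporter increases were scored, and knock-downs that hurt cell survival may mask genuine repressor factors.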 A number with no mark means an inactive call. Reagents against one gene are numbered here. No sequences are given here.

| Gene | reagent no. | mean z-score | z-score, replicate A | z-score, replicate B | z-score, replicate C |
| --- | --- | --- | --- | --- | --- |
| CAPN5 (GeneID 726) | 1 | 1.74 | 2.03 | 1.5 | 1.68 |
| PSMA5 (GeneID 5686) | 1 | -0.41 | -0.7 | -0.49 | -0.03 |
| DNTT (GeneID 1791) | 1 | -1.4 | -0.79 | -1.59 | -1.81 |
| OCIAD2 (GeneID 132299) | 1 | -0.58 | -0.36 | -0.32 | -1.07 |
| GARS1-DT (GeneID 401320) | 1 | -0.12 | -0.16 | 0.05 | -0.24 |
| GARS1-DT (GeneID 401320) | 2 | -0.14 | -0.36 | 0.13 | -0.18 |
| OR10P1 (GeneID 121130) | 1 | -0.54 | -0.59 | -0.4 | -0.63 |
| TNFSF15 (GeneID 9966) | 1 | 1.77 | 1.86 | 1.82 | 1.62 |
| PSIP1 (GeneID 11168) | 1 | -0.73 | -0.86 | -0.82 | -0.51 |
| PIK3CB (GeneID 5291) | 1 | 2.12 (active) | 2.16 | 2.05 | 2.15 |
| LOC387777 (retired record) (GeneID 387777) | 1 | 0.17 | 0 | 0.23 | 0.27 |
| DMKN (GeneID 93099) | 1 | 2.38 (active) | 3.2 | 2.09 | 1.85 |
| ITGAE (GeneID 3682) | 1 | -0.79 | -0.76 | -0.77 | -0.85 |
| WBP4 (GeneID 11193) | 1 | -1.1 | -1.05 | -1.15 | -1.11 |
| BAG5 (GeneID 9529) | 1 | -0.16 | -0.53 | -0.19 | 0.25 |
| NDUFV1 (GeneID 4723) | 1 | -2.03 | -2.17 | -1.94 | -1.99 |
| LOC401625 (retired record) (GeneID 401625) | 1 | 1.21 | 0.67 | 1.44 | 1.51 |
| IFI16 (GeneID 3428) | 1 | 1.39 | 1.15 | 1.32 | 1.7 |
| LOC390551 (retired record) (GeneID 390551) | 1 | 0.03 | -0.5 | 0.25 | 0.35 |
| PACC1 (GeneID 55248) | 1 | -0.54 | -0.92 | -0.73 | 0.02 |
| MXI1 (GeneID 4601) | 1 | 0.08 | 0 | -0.07 | 0.29 |
| SIGLEC5 (GeneID 8778) | 1 | 1.01 | 1.11 | 0.95 | 0.98 |
| FCHSD1 (GeneID 89848) | 1 | -1.21 | -1.66 | -1.51 | -0.46 |
| DPY19L1 (GeneID 23333) | 1 | 0.33 | 0.45 | 0.08 | 0.45 |
| LTBP1 (GeneID 4052) | 1 | -0.14 | -0.19 | -0.13 | -0.09 |
| RCAN1 (GeneID 1827) | 1 | 0.86 | 0.8 | 0.97 | 0.82 |
| IRAK2 (GeneID 3656) | 1 | 0.05 | 0 | -0.05 | 0.21 |
| KAT8 (GeneID 84148) | 1 | -1.21 | -1.4 | -1.1 | -1.11 |
| LOC388123 (retired record) (GeneID 388123) | 1 | 0.07 | -0.36 | 0.34 | 0.22 |
| IL10RB (GeneID 3588) | 1 | 0.05 | -0.07 | 0.12 | 0.1 |
| TRMT11 (GeneID 60487) | 1 | -0.22 | -0.61 | 0.18 | -0.22 |
| LRRC38 (GeneID 126755) | 1 | -0.81 | -1.08 | -0.62 | -0.73 |
| ACTR1A (GeneID 10121) | 1 | 1.43 | 1.03 | 1.39 | 1.86 |
| LOC401121 (retired record) (GeneID 401121) | 1 | 0.65 | 0.91 | 0.65 | 0.4 |
| USP44 (GeneID 84101) | 1 | -1.08 | -0.98 | -1.06 | -1.19 |
| RAB33B (GeneID 83452) | 1 | -1 | -1.06 | -0.86 | -1.09 |

9 entries already listed, ordered by “z-score, replicate B”, highest first:
| Gene | reagent no. | mean z-score | z-score, replicate A | z-score, replicate B | z-score, replicate C |
| --- | --- | --- | --- | --- | --- |
| LOC401625 (retired record) (GeneID 401625) | 1 | 1.21 | 0.67 | 1.44 | 1.51 |
| IFI16 (GeneID 3428) | 1 | 1.39 | 1.15 | 1.32 | 1.7 |
| SIGLEC5 (GeneID 8778) | 1 | 1.01 | 1.11 | 0.95 | 0.98 |
| LOC390551 (retired record) (GeneID 390551) | 1 | 0.03 | -0.5 | 0.25 | 0.35 |
| DPY19L1 (GeneID 23333) | 1 | 0.33 | 0.45 | 0.08 | 0.45 |
| MXI1 (GeneID 4601) | 1 | 0.08 | 0 | -0.07 | 0.29 |
| PACC1 (GeneID 55248) | 1 | -0.54 | -0.92 | -0.73 | 0.02 |
| FCHSD1 (GeneID 89848) | 1 | -1.21 | -1.66 | -1.51 | -0.46 |
| NDUFV1 (GeneID 4723) | 1 | -2.03 | -2.17 | -1.94 | -1.99 |

Further records:
| Gene | reagent no. | mean z-score | z-score, replicate A | z-score, replicate B | z-score, replicate C |
| --- | --- | --- | --- | --- | --- |
| POU5F2 (GeneID 134187) | 1 | 1.59 | 1.68 | 1.52 | 1.57 |
| MAP2K7 (GeneID 5609) | 1 | -0.44 | -0.42 | -0.21 | -0.69 |
| BPIFB3 (GeneID 359710) | 1 | 1.24 | 1.13 | 1.03 | 1.56 |
| NF1 (GeneID 4763) | 1 | -0.66 | -0.59 | -0.63 | -0.75 |
| HSD17B1 (GeneID 3292) | 1 | -0.57 | -0.7 | -0.18 | -0.83 |
| LOC402508 (retired record) (GeneID 402508) | 1 | 0.08 | -0.08 | -0.15 | 0.47 |
| PNLIPRP1 (GeneID 5407) | 1 | 0.39 | 0.34 | 0.32 | 0.49 |
| GFM2 (GeneID 84340) | 1 | 0.51 | 0.68 | 0.28 | 0.55 |
| MIER2 (GeneID 54531) | 1 | -1.65 | -1.44 | -1.73 | -1.78 |
| HAND2 (GeneID 9464) | 1 | 0.97 | 1 | 0.79 | 1.11 |
| MFAP1 (GeneID 4236) | 1 | -2.05 | -2.25 | -1.9 | -2.01 |
| BCAS1 (GeneID 8537) | 1 | -0.61 | -0.58 | -0.67 | -0.57 |
| CT62 (GeneID 196993) | 1 | 1.42 | 1.56 | 1.08 | 1.62 |
| STRAP (GeneID 11171) | 1 | -1.91 | -1.88 | -2.17 | -1.67 |
| PLAG1 (GeneID 5324) | 1 | 0.62 | 0.41 | 0.56 | 0.88 |
| LOC100288884 (retired record) (GeneID 100288884) | 1 | -0.39 | -0.43 | -0.47 | -0.28 |
| ESM1 (GeneID 11082) | 1 | -0.31 | -0.28 | -0.17 | -0.48 |
| CPEB2 (GeneID 132864) | 1 | -0.56 | -0.17 | -0.95 | -0.55 |
| ERICH5 (GeneID 203111) | 1 | 1.03 | 1.03 | 0.8 | 1.25 |
| LOC402641 (GeneID 402641) | 1 | 0.12 | 0.15 | 0.22 | -0.01 |
| PDE7B (GeneID 27115) | 1 | -0.45 | -0.87 | -0.86 | 0.38 |
